The target of assay [1] is T1, SARS-CoV-2 S ectodomain, Delta (SARS-CoV-2 Delta).
T1 construct: extracellular domain
Kind of assay: ELISA on coated S.

The target of assay [2] is T2, SARS-CoV-2 S ectodomain, Omicron BA.4/BA.5 (SARS-CoV-2 Omicron BA.4/BA.5).
T2 construct: extracellular domain
Kind of assay: ELISA on coated S.

Assay [3] concerns the target T3, SARS-CoV-2 S ectodomain, Omicron BA.1 (SARS-CoV-2 Omicron BA.1).
T3 construct: extracellular domain
As to the kind of experiment: ELISA on coated S.

The target of another assay is T4, SARS-CoV-2 SD1-RBD Beta (SARS-CoV-2 Beta).
T4 construct: domain: SD1-RBD
As to the kind of experiment: protein ELISA.

Assay [4] has as its target T5, SARS-CoV-2 SD1-RBD Omicron BA.2 (SARS-CoV-2 Omicron BA.2).
T5 construct: domain: SD1-RBD
As to the kind of experiment: protein ELISA.

The target in a further assay is T6, SARS-CoV-2 SD1-RBD Delta (SARS-CoV-2 Delta).
T6 construct: domain: SD1-RBD
Kind of assay: protein ELISA.

For another assay, the target named is T7, SARS-CoV-2 SD1-RBD Gamma (SARS-CoV-2 Gamma).
T7 construct: domain: SD1-RBD
Kind of assay: protein ELISA.

Our source for the EC50 values is patent publication US20250382354A1 (INSTITUTE FOR RESEARCH IN BIOMEDICINE IRB, published 2025).

B1: hr2.086 (antibody, V domains shown)
VH: EVQLLESGGGLVQPGGYLRLSCAASGFTFSSYAMSWVRQAPGKGLEWVSVISGGGGSAYYADSVKGRFTISRDNSKNTLYLQMNSLRAEDTAVYYCAKIGMILVFDYWGQGTLVTVSS
VL: EIVLTQSPGTLSLSPGERATLSCRASQSVSNNYLAWYQQKPGQAPRLLISGASSRATGIPDRFSGSGSGTDFTLTISRLEPEDFAVYYCQQYGSSPPTFGQGTKVEIK
Take B1: the values for the EC50 in assay [1], in assay [2] and in assay [3] were 0.0468 µg/mL, 0.0343 µg/mL and 0.0342 µg/mL, respectively.

B2: rbd.143 (antibody, V domains shown)
VH: EVQLVESGGGLVQPGGSLRLSCSASGFTFRRYAMHWVRQAPGKGLQHVSAISSDGDNTHYADSVKGRFTISRDNFKNTLHLQMSSLRPEDTAVYYCVKDPFSNFHYFDCWGQGILVTVSS
VL: not shown
For B2, the EC50 with SARS-CoV-2 SD1-RBD Beta was 0.0228 µg/mL; in assay [4], 0.0249 µg/mL; with SARS-CoV-2 SD1-RBD Delta, 0.0291 µg/mL; in the assay with SARS-CoV-2 SD1-RBD Gamma, 0.0196 µg/mL.

B3: fp.002 (antibody, V domains shown)
VH: VQLVESGGGVVQPGTSLRLSCAGSGFNFDNYAIHWVRQAPGQGLEWVAIISYEARNKKYAGSVTGRFSISRDNSKSMVYLQMDSLRGEDTAVYYCARDLFLSDYDRSGYDPTRGGFDLWGQGTLVTVSS
VL: EIVMTQSPATLSVSPGERATLSCRASQSVSSSLAWYQHKLGQAPRLLIYGASTRATGIPGRFSGSGSGTEFTLTISSLQSEDVAIYYCQQYGDWPLVTFGGGTKVEIK
As to B3, the figures for the EC50 in assay [1], in assay [2] and in assay [3] were 0.367 µg/mL, 0.35 µg/mL and 0.338 µg/mL, respectively.

B4: hr2.090 (antibody, V domains shown)
VH: EVQLLESGGGLVQPGGSLRLSCAASGVTFSRYAMSWVRQAPGKGLEWVSTISGGGGGTYYADSVKGRFTISRDNSKNTLYLQMNSLRAEDTAVYYCATLLTVPGPYYFEYWGQGTLVTVSS
VL: EIVLTQSPGTLSLSPGERATLSCRASQSVSSSYLAWYQQKPGQAPRLLIYGASSRATGIPDRFSGSGSGTDFTLTISRLESEDFAVYYCQHSRFTFGPGTRVDIK
In the case of B4, the half-maximal effective concentration (EC50) in assay [1] was determined as 0.0445 µg/mL; in assay [2], 0.0713 µg/mL; in assay [3], 0.0571 µg/mL.

B5: hr2.020 (antibody, V domains shown)
VH: EVQLVQSGAEVKKPGESLKISCKGSGYRFASHWIGWVRQMPGKGLQWMGIIYPGDSDTKYSPSFQGQVTISADKSINTVYLHWTSLKASDTAVYYCARRPPHLDGGDSPIRFDHWGQGTLVTVSS
VL: QSVLTQPPSASGTPGQRVTISCSGSRSNIGSNDVYWYQQFPGTAPKLLIYRNNQRPSGVPDRFSGSKSGTSASLAISGLRSEDEADYYCATWDDRLTGVFGGGTKLTVV
Take B5: the figures for the EC50 in assay [1], in assay [2] and in assay [3] were 0.123 µg/mL, 0.103 µg/mL and 0.113 µg/mL, respectively.

B6: rbd.113 (antibody, V domains shown)
VH: EVQLVQSGAAVKKPGESLKISCKGSGYSFTNYWIGWVRQMPGKGLELMGIIYVGDSDTRYSPSFQGQVTISADKSITTAYLQWSSLKASDSAIYYCARQRCGGDCPFDLWGRGTLVTVSS
VL: DIQMTQSPSTLSASVGDRVTITCRASQSINRWLAWYQQKPGKAPELLIYDASDLESGVPSRFSGSGSGTEFTLTISSLQPDDFATYYCQQYNSYWTFGQGTKVEIK
As to B6, the EC50 with SARS-CoV-2 SD1-RBD Beta amounted to 0.0217 µg/mL; in assay [4], 0.0198 µg/mL; with SARS-CoV-2 SD1-RBD Delta, 0.0279 µg/mL; with SARS-CoV-2 SD1-RBD Gamma, 0.0183 µg/mL.

B7: rbd.112 (antibody, V domains shown)
VH: EVQLVQSGAEVKKSGESLKISCKSSGYSFTTYWIAWVRQMPGKGLEWMGIIYPGHSDARYSPSFQGHVTISADKSISTAYLQWRSLKASDTAIYYCARLSYYDVSNFYYYDSYWFDSWGLGTLVTVSS
VL: QSVLTQPPSVSGAPGQRVTISCTGSSSNLGAGYDVHWYQQLPGTAPKLLIYANSNRPSGVPDRFSGSKSGTSASLAMTGLQAEDEADYYCQSYDSSLGGYVFGFGTKVTVL
On to B7, for which the EC50 came out at 0.0258 µg/mL with SARS-CoV-2 SD1-RBD Beta, 0.0301 µg/mL in assay [4], 0.0364 µg/mL with SARS-CoV-2 SD1-RBD Delta and 0.0221 µg/mL in the assay with SARS-CoV-2 SD1-RBD Gamma.

B8: hr2.094 (antibody, V domains shown)
VH: EVQLVESGGGLVQPGGSLRLSCAASGFTFSTFWMTWVRQAPGKGLEWVANIKSDGSEKYYVDSVKGRFTISRDNAKNSLYLQMNSLRAEDTAVYYCATWFGLHWGQGTLVTVSS
VL: DIVMTQSPDSLAVSLGERASINCKSSQTVLYSSNNKNYLAWYQQKPGQPPKLLIHWASTRDSGVPDRFSGSGSGTDFTLTISSLQAEDVAVYYCQQYHRIPWTFGRGTKVEIK
In the case of B8, the EC50 in assay [1] came to 0.0732 µg/mL; in assay [2] it was 0.143 µg/mL; in assay [3] it was 0.0996 µg/mL.

B9: rbd.141 (antibody, V domains shown)
VH: EVQLVESGGGVVQPGRSLRLSCAASGFTFSSYGMHWVRQAPGKGLEWVAVISYDGKIKYYADSVEGRFTISRDNSKNALYLQMNSLRAEDTAVYYCAKYGIVTSFGVVPPYDMDVWGQGTTVTVSS
VL: DVVMTQSPLSLPVTLGQPASISCRSSQSLVYSDGNTFLNWFQQRPGQSPRRLIYKVSDRDSGVPDRFSGSGSGTDFTLKISRVEAEDVGVYYCMQGTNWPPTFGQGTKVEIK
B9: the EC50 with SARS-CoV-2 SD1-RBD Beta came to 0.0171 µg/mL; in assay [4], 0.0169 µg/mL; in the assay with SARS-CoV-2 SD1-RBD Delta, 0.0163 µg/mL; with SARS-CoV-2 SD1-RBD Gamma, 0.0116 µg/mL.

B10: hr2.021 (antibody, V domains shown)
VH: QVQLVQSGAEVKKPGASVKVSCKASEAIFSGSYLHWVRQAPGQGLEWMGIITPSGDKTFYAQRFQGRLTMTRDTSTNTLHMHLSGLNSEDTAMYYCARQADKGGWDYWGQGTLVTVSS
VL: EIVLTQSPGTLSLSPGERATLSCRASQSVTSNYVAWYQQKPGQAPRLLIYGASTRATGIPDRFSGGGSGTDFTLTITRLEPEDFAVYYCQQYGSSPPTFTFGPGTKVDIK
Take B10: the EC50 in assay [1] came out at 0.116 µg/mL; in assay [2], 0.0929 µg/mL; in assay [3], 0.0912 µg/mL.

B11: hr2.024 (antibody, V domains shown)
VH: QVQLVQSGAEVKKPGASVKVSCKASEDIFTDSYLHWVRQAPGQGLEWMGIITPSGDKTFYAQQFQGRLTMTRDPSTNTLYMFLSGLRSDDTAMYFCARQAEKGGWDYWGHGTLVTVSS
VL: EIVLTQSPGTLSLSPGQRATLSCRSSQTITSNYLAWYQQRPGQAPRLLIYGASIRATGIPDRFSGSGSGTDFTLTISRLEPEDFAVYYCQQYGSSPPTFIFGPGTKVDIK
Consider B11, for which the EC50 in assay [1] was determined as 0.08 µg/mL; in assay [2], 0.09 µg/mL; in assay [3] it was 0.0544 µg/mL.

B12: hr2.023 (antibody, V domains shown)
VH: QVQLVQSGAEVKKPGASVKVSCRASENIFSDSYLHWVRQAPGQGLEWMGIITPSGDKTFYAQQFQGRLTMTRDTPTNTLHMDLRGLTSADTAIYYCARQATKGGWDYWGQGTLVTVSS
VL: EIVLTQSPGTLSLSPGESATLSCRASQSVTRNYLAWYQQQPGQAPRLLIYGASNRATGVPDRFSGSGSGTDFTLTISRLEPEDFAVYYCQQYGSSPPTFIFGPGTKVDIK
With B12, the EC50 in assay [1] turned out to be 0.0464 µg/mL; in assay [2], 0.0393 µg/mL; in assay [3] it was 0.036 µg/mL.

B13: rbd.110 (antibody, V domains shown)
VH: EVQLVESGGGVVQPGRSLRLSCVASGFTFSRYGMHWVRQAPGKGLEWVATILYDGSDQYYAESVKGRFTISRDNSKNTLYLQMNSLREADTAVYYCAKTSYGYAYNFRLYFDYWGQGTLVTVSS
VL: SYELTQPPSVSVAPGKTATITCGGNNIGSAGVHWYQQRPGQAPVLVVYDDSDRPSGIPERFSGSTSGNTATLTISRVEAGDEADYYCQVWDSNSAPVIFGGGTKLTVL
As for B13, the EC50 with SARS-CoV-2 SD1-RBD Beta came out at 0.0223 µg/mL; in assay [4] it was 0.0193 µg/mL; in the assay with SARS-CoV-2 SD1-RBD Delta, 0.0269 µg/mL; in the assay with SARS-CoV-2 SD1-RBD Gamma, 0.0175 µg/mL.

B14: fp.010 (antibody, V domains shown)
VH: EVQLLESGGGLVQPGGSLRLSCAASGFTFSTYAMNWVRQAPGKGLEWVSAISSSGLSTQYADSVRGRFTISRDTSKNTLYLHMNSLRAGDTAVYYCAKVEYSGYDPRGPFDSWGQGTLVTVSS
VL: DIQMTQSPSTLSASVGDRVTITCRASQSISGWLAWYQQKPGRAPKLLIYKASSLERGVPSRFSGSGSGTEFTLTISSLQPDDFATYYCQEYSSYPLCTFGQGTKLEIK
On to B14, for which, in assay [1], the midpoint of the response, the EC50, lay at 5.04 µg/mL.

B15: rbd.117 (antibody, V domains shown)
VH: EVQLVESGGGLVQPGGSLRLSCAASGFTFSRYAMSWVRQAPGKGLEWVSGLSGSGDSTYYADSVKGRFTISRDNSKKTLNLQMNSLRPEDTAVYYCAKGSRFGIDYFDCWGQGTLVTVSS
VL: DIQMTQSPSTLSASVGDRVTITCRASQSISSWLAWYQLKPGKAPKLLIYDASSLESGVPSRFSGSGSGTEFTLTISSLQPDDFATYYCQQYNTYPFSFGPGTKVDIK
On to B15, for which the EC50 turned out to be 0.0256 µg/mL in the assay with SARS-CoV-2 SD1-RBD Beta, 0.0272 µg/mL in assay [4], 0.0407 µg/mL with SARS-CoV-2 SD1-RBD Delta and 0.0252 µg/mL in the assay with SARS-CoV-2 SD1-RBD Gamma.

B16: rbd.123 (antibody, V domains shown)
VH: QVQLVQSGAEVKKPGSSVKVSCKASGGAFRMYAISWVRQAPGQGLEWMGGIIPISGTATYTQNFQGRVTITVDRSTSTAYMELSSLRSDDTALYYCARGPRTGYDYFDFWGQGTLVTVSS
VL: DIQMTQSPSTLSASVGDRVTITCRASQSISSWLAWYQQKPGKAPNLLIYDASSLESGVPSRFSGSGSGTEFTLTISSLQPDDFATYYCQQYKSYPYTFGQGTKLEIK
For B16, the EC50 with SARS-CoV-2 SD1-RBD Beta is 0.0094 µg/mL; in assay [4] it was 0.00877 µg/mL; in the assay with SARS-CoV-2 SD1-RBD Delta it was 0.0106 µg/mL; in the assay with SARS-CoV-2 SD1-RBD Gamma, 0.00852 µg/mL.

B17: rbd.106 (antibody, V domains shown)
VH: EVQLVQSGAEVKKPGESLKISCKGSGYSFYNHWIAWVRQMPGKGLEWMGIIYPYDSDTRYSPSFQGQVTISADKSITTAYLQWSSLKASDTAIYYCARRSDYGEFGGHSDYWGQGTLVTVSS
VL: QSVLTQPPSASGTPGQRVSISCSGSSSNIGSNSVNWYQQFPGTAPKLLMFSSYQRPSGVPDRFSGSKSGTSASLAISGLQSEDEADYYCAAWDDSLNGVVFGGGTKLTVL
In the case of B17, the EC50 with SARS-CoV-2 SD1-RBD Beta came to 0.0258 µg/mL; in assay [4] it was 0.0236 µg/mL; with SARS-CoV-2 SD1-RBD Delta it was 0.031 µg/mL; with SARS-CoV-2 SD1-RBD Gamma, 0.0213 µg/mL.
